The values that follow come from US6596723B1, “Fungal efflux pump inhibitors” (Essential Therapeutics, Inc., priority 2001, dated 2003).

Test [1] has as its system Candida albicans YEM15 (over-expressing the CDR1 and CDR2 pumps). In kind it is cell-based. The note with it: strain YEM15; concentration of efflux pump inhibitor necessary to reduce the fluconazole MIC 8-fold.
Test [2] has as its system C. glabrata YEM19 (over-expressing the CgCDR1 and CgCDR2 pumps). In kind it is cell-based, Candida glabrata. The note with it: strain YEM19; efflux pump inhibitor concentration reducing fluconazole MIC 8-fold.

As for `COc1ccc(N(C(=O)Nc2cccc(Cl)c2)C(C)c2nc3ccccc3c(=O)n2N2CCN(C)CC2)c(OC)c1` (centres unmarked) [Compound 1, 3-(3-Chloro-phenyl)-1-(2,4-dimethoxy-phenyl)-1-{1-[3-(4-methyl-piperazin-1-yl)-4-oxo-3,4-dihydro-quinazolin-2-yl]-ethyl}-urea], the MPC8 in test [1] was found to be 0.125 µg/mL; in test [2] it was 2 µg/mL. For `COc1ccc(N(C(=O)Nc2cccc(Cl)c2)C(C)c2nc3ccccc3c(=O)n2N2CCN(CCOC(C)=O)CC2)c(OC)c1` (centres unmarked) [Compound 2, Acetic acid 2-[4-(2-{1-[3-(3-chloro-phenyl)-1-(2,4-dimethoxy-phenyl)-ureido]-ethyl}-4-oxo-4H-quinazolin-3-yl)-piperazin-1-yl]-ethylester], the results for the MPC8 in test [1] and in test [2] were less than 0.5 µg/mL and 2 µg/mL, respectively. For `COc1ccc(N(C(=O)Nc2cccc(Cl)c2)C(C)c2nc3ccccc3c(=O)n2N2CCN(CCO)CC2)c(OC)c1` (centres unmarked) [Compound 3, 3-(3-Chloro-phenyl)-1-(2,4-dimethoxy-phenyl)-1-(1-{3-[4-(2-hydroxy-ethyl)-piperazin-1-yl]-4-oxo-3,4-dihydro-quinazolin-2-yl}-ethyl)-urea] the same measures were 0.03 µg/mL and 1 µg/mL. Turning to `COc1ccc(N(C(=O)Nc2cccc(Cl)c2)C(C)c2nc3ccccc3c(=O)n2N2CCN(C)CC2)cc1` (centres unmarked) [Compound 4, 3-(3-Chloro-phenyl)-1-(4-methoxy-phenyl)-1-{1-[3-(4-methyl-piperazin-1-yl)-4-oxo-3,4-dihydro-quinazolin-2-yl]-ethyl}-urea], the MPC8 in test [1] came out at 2 µg/mL; in test [2], 32 µg/mL. `COc1ccc(N(C(=O)Nc2cccc(Cl)c2)C(C)c2nc3ccccc3c(=O)n2N2CCN(C)CC2)c(C)c1` (centres unmarked) [Compound 5, 3-(3-Chloro-phenyl)-1-(4-methoxy-2-methyl-phenyl)-1-{1-[3-(4-methyl-piperazin-1-yl)-4-oxo-3,4-dihydro-quinazolin-2-yl]-ethyl}-urea]: the MPC8 in test [1] was 4 µg/mL. As to `COc1ccc(N(C(=O)Nc2ccccc2Cl)C(C)c2nc3ccccc3c(=O)n2N2CCN(C)CC2)c(OC)c1` (centres unmarked) [Compound 6, 3-(2-Chloro-phenyl)-1-(2,4-dimethoxy-phenyl)-1-{1-[3-(4-methyl-piperazin-1-yl)-4-oxo-3,4-dihydro-quinazolin-2-yl]-ethyl}-urea], the results for the MPC8 in test [1] and in test [2] were 4 µg/mL and 2 µg/mL, respectively. On to `COc1ccc(N(C(=O)Nc2ccc(Cl)cc2)C(C)c2nc3ccccc3c(=O)n2N2CCN(C)CC2)c(OC)c1` (centres unmarked) [Compound 7, 3-(4-Chloro-phenyl)-1-(2,4-dimethoxy-phenyl)-1-{1-[3-(4-methyl-piperazin-1-yl)-4-oxo-3,4-dihydro-quinazolin-2-yl]-ethyl}-urea], for which the MPC8 in test [1] was 1 µg/mL. Consider `COc1ccc(N(C(=O)Nc2ccccc2)C(C)c2nc3ccccc3c(=O)n2N2CCN(C)CC2)c(OC)c1` (centres unmarked) [Compound 8, 1-(2,4-Dimethoxy-phenyl)-1-{1-[3-(4-methyl-piperazin-1-yl)-4-oxo-3,4-dihydro-quinazolin-2-yl)-ethyl}-3-phenyl-urea], for which the MPC8 in test [1] came out at 2 µg/mL; in test [2], 8 µg/mL. Regarding `COc1ccc(N(C(=O)Nc2ccccc2OC)C(C)c2nc3ccccc3c(=O)n2N2CCN(C)CC2)c(OC)c1` (centres unmarked) [Compound 9, 1-(2,4-Dimethoxy-phenyl)-3-(2-methoxy-phenyl)-1-{1-[3-(4-methyl-piperazin-1-yl)-4-oxo-3,4-dihydro-quinazolin-2-yl]-ethyl}-urea], the MPC8 in test [1] worked out at 16 µg/mL. The same measure, in the same setting: with `COc1ccc(N(C(C)c2nc3ccccc3c(=O)n2N2CCN(C)CC2)S(=O)(=O)c2ccc(Cl)cc2)c(OC)c1` (centres unmarked) [Compound 10, 4-Chloro-N-(2,4-dimethoxy-phenyl)-N-{1-[3-(4-methyl-piperazin-1-yl)-4-oxo-3,4-dihydro-quinazolin-2-yl]-ethyl}-benzenesulfonamide] the figure was 32 µg/mL. In test [2], `COc1ccc(N(C(=O)Oc2ccccc2)C(C)c2nc3ccccc3c(=O)n2N2CCN(C)CC2)c(OC)c1` (centres unmarked) [Compound 11, (2,4-Dimethoxy-phenyl)-{1-[3-(4-methyl-piperazin-1-yl)-4-oxo-3,4-dihydro-quinazolin-2-yl]-ethyl}-carbamic acid phenyl ester] came in with an MPC8 of 32 µg/mL. With `COc1ccc(N(C(=O)Nc2ccc(Cl)cc2)C(C)c2nc3ccccc3c(=O)n2N2CCN(C)CC2)cc1` (centres unmarked) [Compound 12, 3-(4-Chloro-phenyl)-1-(4-methoxy-phenyl)-1-{1-[3-(4-methyl-piperazin-1-yl)-4-oxo-3,4-dihydro-quinazolin-2-yl]-ethyl}-urea], the MPC8 stood at 8 µg/mL in test [1] and 16 µg/mL in test [2]. Take `COc1ccc(N(C(=O)Nc2ccc(F)cc2)C(C)c2nc3ccccc3c(=O)n2N2CCN(C)CC2)c(OC)c1` (centres unmarked) [Compound 13, 1-(2,4-Dimethoxy-phenyl)-3-(4-fluoro-phenyl)-1-{1-[3-(4-methyl-piperazin-1-yl)-4-oxo-3,4-dihydro-quinazolin-2-yl]-ethyl}-urea]: the MPC8 in test [1] and in test [2] was 4 µg/mL in each case. As for `COc1ccc(N(C(=O)Nc2ccc(C)cc2)C(C)c2nc3ccccc3c(=O)n2N2CCN(C)CC2)c(OC)c1` (centres unmarked) [Compound 14, 1-(2,4-Dimethoxy-phenyl)-1-{1-[3-(4-methyl-piperazin-1-yl)-4-oxo-3,4-dihydro-quinazolin-2-yl]-ethyl}-3-p-tolyl-urea], the MPC8 in test [1] and in test [2] was 2 µg/mL in each case.

In turn, `COc1ccc(N(C(C)c2nc3ccccc3c(=O)n2N2CCN(C)CC2)S(=O)(=O)c2ccccc2Cl)c(OC)c1` (centres unmarked) [Compound 16, 2-Chloro-N-(2,4-dimethoxy-phenyl)-N-{1-[3-(4-methyl-piperazin-1-yl)-4-oxo-3,4-dihydro-quinazolin-2-yl]-ethyl}-benzenesulfonamide] yielded an MPC8 in test [1] of 32 µg/mL. In test [1], `COc1ccc(N(C(=O)c2ccc(C)cc2)C(C)c2nc3ccccc3c(=O)n2N2CCN(C)CC2)c(OC)c1` (centres unmarked) [Compound 26, N-(2,4-Dimethoxy-phenyl)4-methyl-N-{1-[3-(4-methyl-piperazin-1-yl)-4-oxo-3,4-dihydro-quinazolin-2-yl)-ethyl}-benzamide] gave an MPC8 of 4 µg/mL. `COc1ccc(N(C(=O)c2cccc(Cl)c2)C(C)c2nc3ccccc3c(=O)n2N2CCN(C)CC2)c(OC)c1` (centres unmarked) [Compound 27, 3-Chloro-N-(2,4-dimethoxy-phenyl)-N-{1-[3-(4-methyl-piperazin-1-yl)-4-oxo-3,4-dihydro-quinazolin-2-yl)-ethyl}-benzamide] came in with an MPC8 in test [1] of 8 µg/mL.

`COc1ccc(N(C(=O)c2ccc(Cl)cc2)C(C)c2nc3ccccc3c(=O)n2N2CCN(C)CC2)c(OC)c1` (centres unmarked) [Compound 28, 4-Chloro-N-(2,4-dimethoxy-phenyl)-N-{1-[3-(4-methyl-piperazin-1-yl)-4-oxo-3,4-dihydro-quinazolin-2-yl)-ethyl}-benzamide] showed an MPC8 in test [1] of 4 µg/mL. Same read-out and setting: with `COc1ccc(N(C(=O)c2ccccc2Cl)C(C)c2nc3ccccc3c(=O)n2N2CCN(C)CC2)c(OC)c1` (centres unmarked) [Compound 29, 2-Chloro-N-(2,4-dimethoxy-phenyl)-N-{1-[3-(4-methyl-piperazin-1-yl)-4-oxo-3,4-dihydro-quinazolin-2-yl)-ethyl}-benzamide] the figure was 4 µg/mL; with `COc1ccc(C(=O)N(c2ccc(OC)cc2OC)C(C)c2nc3ccccc3c(=O)n2N2CCN(C)CC2)cc1` (centres unmarked) [Compound 30, N-(2,4-Dimethoxy-phenyl)-4-methoxy-N-{1-[3-(4-methyl-piperazin-1-yl)-4-oxo-3,4-dihydro-quinazolin-2-yl]-ethyl}-benzamide], 16 µg/mL; with `COc1ccc(N(C(=O)NC(C)C)C(C)c2nc3ccc(Cl)cc3c(=O)n2N2CCN(C)CC2)c(OC)c1` (centres unmarked) [Compound 32, 1-{1-[6-Chloro-3-(4-methyl-piperazin-1-yl)-4-oxo-3,4-dihydro-quinazolin-2-yl]-ethyl}-1-(2,4-dimethoxy-phenyl)-3-isopropyl-urea], 4 µg/mL. In turn, `COc1cc(N(C(=O)Nc2cccc(Cl)c2)C(C)c2nc3ccccc3c(=O)n2N2CCN(C)CC2)cc(OC)c1OC` (centres unmarked) [Compound 33, 3-(3-Chloro-phenyl)-1-{1-[3-(4-methyl-piperazin-1-yl)-4-oxo-3,4-dihydro-quinazolin-2-yl]-ethyl}-1-(3,4,5-trimethoxy-phenyl)-urea] displayed an MPC8 in test [1] of 8 µg/mL. In test [1], `COc1ccc(NC(=O)N(c2ccc3c(c2)OCO3)C(C)c2nc3ccccc3c(=O)n2N2CCN(C)CC2)cc1` (centres unmarked) [Compound 34, 1-Benzo[1,3]dioxol-5-yl-3-(4-methoxy-phenyl)-1-{1-[3-(4-methyl-piperazin-1-yl)-4-oxo-3,4-dihydro-quinazolin-2-yl]-ethyl}-urea] came in with an MPC8 of 8 µg/mL. Same read-out and setting: the value for `COc1ccc(N(C(=O)Oc2ccccc2Cl)C(C)c2nc3ccccc3c(=O)n2N2CCN(C)CC2)c(OC)c1` (centres unmarked) [Compound 36, (2,4-Dimethoxy-phenyl)-{1-[3-(4-methyl-piperazin-1-yl)-4-oxo-3,4-dihydro-quinazolin-2-yl]-ethyl}-carbamic acid 2-chloro-phenyl ester] was 16 µg/mL; that for `COc1ccc(OC(=O)N(c2ccc(OC)cc2OC)C(C)c2nc3ccccc3c(=O)n2N2CCN(C)CC2)cc1` (centres unmarked) [Compound 37, (2,4-Dimethoxy-phenyl)-{1-[3-(4-methyl-piperazin-1-yl)-4-oxo-3,4-dihydro-quinazolin-2-yl]-ethyl}-carbamc acid 4-methoxy-phenyl ester] was 32 µg/mL. Same read-out and setting: with `COc1ccc(N(C(=O)Nc2ccccc2)C(C)c2nc3ccc(Cl)cc3c(=O)n2CCN2C(=O)c3ccccc3C2=O)c(OC)c1` (centres unmarked) [Compound 39, 1-(1-{6-Chloro-3-[2-(1,3-dioxo-1,3-dihydro-isoindol-2-yl)-ethyl]-4-oxo-3,4-dihydro-quinazolin-2-yl}-ethyl)-1-(2,4-dimethoxy-phenyl)-3-phenyl-urea] the entry was “≦0.03 μg/ml”.
